Measurements taken from patent US7186695B2, “Treatment of arthritis with arsenoxide compounds” (priority 2001, dated 2007).

Test system: BAE cells
Conditions: read-out: IC50 for viability, 24 hours

Row | Substance | IC50
1 | a mixture of 4-(N-(6-(fluorescein-5-carboxamido)hexanoyl)amino)phenylarsenoxide and 4-(N-(6-(fluorescein-6-carboxamido)hexanoyl)amino)phenylarsenoxide | > 200 µM
2 | phenylarsenoxide | < 0.1 µM
